In patent US8674085B2, “2′-branched nucleosides and Flaviviridae mutation” (priority 2002, dated 2014):

What was measured:
[1] = test system: BVDV (strain I-N-dIns) in persistently infected MDBK cells; experiment: Single or double treatment of persistently infected MDBK cells, virus titers by focus assay; assay type: cell-based, bovine viral diarrhea virus; details: for log value of the BVDV titer: 0 μM β-D-2′-CH3-riboC, 7 days (two passages)
Experimental: Persistent BVDV infection was established in MDBK cell line (ATCC, Manassas, Va., Catalog #: CCL-22) by in vitro infection of naive cells with a noncytophatic (ncp) BVDV (strain I-N-dIns; Dr. R. Donis, U. of Nebraska, Lincoln, Nebr.). The multiplicity of infection (MOI) was 0.01. Cells were passaged twice per week (splitting ratio 1:15) until the stable high-level of infection (10^6-10^7 focus forming units (FFU) per mL) was achieved, as was determined by a focus assay. Next, the persistently infected cells were grown in 6-well culture plates with 8 μM or without β-D-2′-CH3-riboC (Idenix Pharmaceuticals). Cell cultures were passaged every three to four days by splitting with a ratio of 1:15 to 1:20. […] The virus titers in cell cultures were monitored at the end of each passage by the virus focus assay.
(§1) To conduct the virus focus assay, MDBK cells were seeded onto 6-well plates containing 2×10^5 cells per well and grown at 37° C./5% CO2 for at least 5 hours before use. The test samples (culture supernatants combined with cell monolayers) were frozen/thawed twice, serially diluted by 10-fold in medium, and used to inoculate test cells in 6-well plates at 0.2 mL per well. The inoculum was removed after 1 hour of adsorption, and the cells were overlaid with 3 mL of 0.5% agarose in complete growth medium (1× DMEM (Cellgro), supplemented with 8% horse serum, penicillin, streptomycin, L-glutamine, sodium pyruvate, and 25 mM HEPES). After 3 days of incubation at 37° C./5% CO2, the plates were fixed for 1 hour with 3 mL of 7.4% formaldehyde in PBS, and washed with PBS. The cell monolayers were permeabilized with 1 mL of PBS-0.25% Triton X-100 per well for 10 minutes, and incubated with 0.5 mL of goat anti-BVDV antiserum (VMDR, Inc.; diluted 1:1000 in PBS-0.25% Triton X-100) for 1 hour. The antiserum was then removed, and cell monolayers were washed with PBS (twice for 15 min) and incubated with 0.5 mL of peroxidase-conjugated donkey anti-goat antibody (diluted 1:1000 in PBS-0.25% Triton X-100) for another 1 hour. After the antibody was removed, the cell monolayers were washed with PBS (twice for 15 min), and incubated with 0.5 mL of diaminobenzidine (DAB) peroxidase substrate solution (Vector Laboratories) at room temperature until virus foci become visible (approximately 15 minutes). All incubations were carried out with rocking. The staining was stopped by washing with water and the plates were allowed to air dry. Virus titers were calculated in FFU/mL, using the following equation: TFFU/mL=N×5×D; where T is a virus titer in FFU/mL; N is a number of foci per well; and D is a dilution factor for the corresponding virus sample.
The effect of Intron A, alone or in combination with β-D-2′-CH3-riboC, on the wild type BVDV was further studied in the persistently infected MDBK cells. In one experimental setting, the virus titers were determined after 7 days (two passages) of single or double treatment with several inhibitor concentrations.

[2] = test system: BVDV strain I-N-dIns (wild type); assay type: cell-based, bovine viral diarrhea virus
Experimental: as §1, with “sample. […]” for “sample.”
To conduct the virus yield reduction assay, MDBK cells were seeded onto 24-well plates (1×10^5 cells per well) and grown at 37° C./5% CO2 overnight. […] The virus titer in the cell culture was quantified by focus assay as described above. […]

Interferon alpha-2b: Intron-A (interferon alpha-2b) by Schering [reference compound]
log value of the BVDV titer ([1]; 5 IU/mL Interferon alpha-2b): 6.81 log
log value of the BVDV titer ([1]; 50 IU/mL Interferon alpha-2b): 6.95 log
log value of the BVDV titer ([1]; 200 IU/mL Interferon alpha-2b): 6.73 log
log value of the BVDV titer ([1]; 1000 IU/mL Interferon alpha-2b): 6.41 log
log value of the BVDV titer ([1]; 2000 IU/mL Interferon alpha-2b): 6.51 log
reduction of viral titers ([1]; single treatment, 2000 IU/mL interferon alpha-2b, 7 days): 0.1 log
EC90 [2]: 119 ± 34.1 µM
EC4 log ([2]; BVDV strain I-N-dIns, ncp, concentration reducing viral titer by 99.99%, 48 hours): >800 μM
reduction in virus yield ([2]; wild type virus, highest drug concentration tested): ~1.5 log
